A mixed list of measured activities; the numbers were collected in NIAID ChemDB.

All rows: host cell toxicity; cell line: MT-4; measure: CC50

An empty or dashed field is not shown.

compound	method	result
Cc1cn([C@H]2C[C@H](N=[N+]=[N-])[C@@H](CO)O2)c(=O)[nH]c1=O	MTT	63 µg/mL
O=C([O-])c1c[nH]c2ccc(Cc3ccccc3)cc2c1=O.O=C([O-])c1c[nH]c2ccc(Cc3ccccc3)cc2c1=O.[Mg+2]	MTT	17 µM
O=C(O[C@@H]1Cc2c(O)cc(O)cc2O[C@@H]1c1ccc(O)c(O)c1)c1cc(O)c(O)c(O)c1		4.6 µg/mL
N#Cc1ccc(Nc2nccc(Oc3cc4c(cc3Br)c(=O)c(C(=O)O)cn4C3CC3)n2)cc1	MTT	14.99 µM
NC(=O)c1ccc(Cn2cc(CSc3nc(Cc4cccc5ccccc45)cc(=O)[nH]3)nn2)cc1	MTT	105 µM
Cc1ccc2snc(N=Cc3ccccc3Cl)c2c1	MTT	8 µM
CC1=NO[C@@]2(CC[C@H](C)N3C[C@H]2n2cc(C(=O)NCc4ccc(F)cc4F)c(=O)c(OC(=O)N(C)c4ncc(C(=O)N[C@@H](CC(=O)O)C(=O)O)cc4COP(=O)(O)O)c2C3=O)C1	luminescence	50 µM
CC(C)c1nc(C(=O)NCc2ccc(F)cc2)c([O-])c(=O)n1C.CC(C)c1nc(C(=O)NCc2ccc(F)cc2)c([O-])c(=O)n1C.[Mg+2]	MTT	41 µM
NCCCN1c2ccccc2Sc2ccc(Cl)cc21		9.3 µg/mL
Cc1cc(C)c(Oc2ccc(N)c(NC3CCN(Cc4ccncc4)CC3)n2)c(C)c1	MTT	30 µM
Cn1ncc2c1S(=O)(=O)N(CCc1ccccc1)C(=O)N2CCc1ccccc1C#N	MTT	≥198 µM
CC1=NO[C@@]2(CC[C@H](C)N3C[C@H]2n2cc(C(=O)NCc4ccc(F)cc4F)c(=O)c(OCOC(=O)OCC4(COP(=O)(O)O)CCC4)c2C3=O)C1	luminescence	15.1 µM
COC(=O)[C@H](CCSC)NC(=O)CNC(=O)COc1ccc2ccccc2c1	MTT	>100 µg/mL
Cn1ncc2c1S(=O)(=O)N(CCc1ccccc1)C(=O)N2CCc1ccc(C(C)(C)C)cc1	MTT	>285.4 µM
Cc1cc(C)c(Nc2ccc([N+](=O)[O-])c(NC3CCN(Cc4ccc(C(N)=O)cc4)CC3)n2)c(C)c1	MTT	25 µM
Cc1cc(C)cc(S(=O)(=O)c2c(C(=O)NCc3ccccc3)[nH]c3ccc(Cl)cc23)c1		>1 µM
NOCc1c(Cl)cccc1Cl		51.9 µg/mL
CS(=O)(=O)NCCCN1c2ccccc2Sc2ccc(Cl)cc21		>500 µg/mL
Cn1ncc2c1S(=O)(=O)N(CCc1ccccc1)C(=O)N2CCc1cccc(Cl)c1	MTT	>300.1 µM
CC1=NO[C@@]2(CC[C@H](C)N3C[C@H]2n2cc(C(=O)NCc4ccc(F)cc4F)c(=O)c(OCOC(=O)O[C@@H]4CC[C@H](OP(=O)(O)O)C4)c2C3=O)C1	luminescence	50 µM
Cc1cc(C)c(Nc2ccc([N+](=O)[O-])c(NC3CCN(Cc4ccc(S(C)(=O)=O)cc4)CC3)n2)c(C)c1	MTT	21 µM
COC(=O)[C@H](CO)NC(=O)[C@H](C)NC(=O)COc1ccc2ccccc2c1	MTT	>100 µg/mL
Cc1cn([C@H]2C[C@H](N=[N+]=[N-])[C@@H](CO)O2)c(=O)[nH]c1=O		>100 µM
CC(C)OP(=O)(COCC1(Cn2ccc(=O)[nH]c2=O)CC=CC1)OC(C)C		>100 µg/mL
c1ccc2c(c1)Nc1ccccc1S2		264 µg/mL
CC(C)Cn1cc(C(=O)O)c(=O)c2cc(Br)c(Oc3ccnc(Nc4ccc(C#N)cc4)n3)cc21	MTT	21.07 µM
O=C1c2ccccc2C(=O)N1CCCN1c2ccccc2Sc2ccc(Cl)cc21		500 µg/mL
Cc1ccc2snc(N=Cc3cccc(Cl)c3)c2c1	MTT	7 µM
C=C(C)[C@H]1[C@@H]2OC3(/C=C/C=C/CCCCC)O[C@@H]2[C@@H]2[C@@H]4O[C@]4(CO)[C@@H](O)[C@]4(O)C(=O)C(C)=C[C@H]4[C@@]2(O3)[C@@H]1C	luminescence	0.03 µM
Cc1cn([C@H]2C[C@H](N=[N+]=[N-])[C@@H](CO)O2)c(=O)[nH]c1=O	MTT	>94 µM
Cc1cc(C)c(Oc2ccc([N+](=O)[O-])c(NC3CCN(Cc4ccc(C(N)=O)cc4)CC3)n2)c(C)c1	MTT	19 µM
O=[N+]([O-])c1ccccc1/C=N/c1nc2ccccc2s1	MTT	25 µM
Cc1cc(C#N)cc(C)c1Oc1ccc([N+](=O)[O-])c(NC2CCN(Cc3ccc(S(C)(=O)=O)cc3)CC2)n1	MTT	>146 µM
NOCc1ccccc1		82.3 µg/mL
Nc1ccn([C@H]2CC[C@@H](CO)O2)c(=O)n1		73.9 µM
N#Cc1ccccc1Cn1cc(CSc2nc(Cc3cccc4ccccc34)cc(=O)[nH]2)nn1	MTT	105 µM
O=[N+]([O-])c1ccc(CN2CCC(N=C3C=C(Cc4cccc5ccccc45)NS(=O)(=O)N3)CC2)cc1	MTT	104 µM
Nc1ncnc2ncn(CCOCP(=O)(O)O)c12		>300 µg/mL
COC(=O)CNC(=O)[C@H](CCSC)NC(=O)COc1ccc2ccccc2c1	MTT	>100 µg/mL
Cc1cc(C)cc(S(=O)(=O)c2c(C(=O)NCCOc3ccccc3)[nH]c3ccc(Cl)cc23)c1		>1 µM
Cc1c(Cc2cccc3ccccc23)nc(SCc2cn(Cc3ccccc3C#N)nn2)[nH]c1=O	MTT	123 µM
Cc1cc(C)c(Nc2ccc([N+](=O)[O-])c(NC3CCN(Cc4ccncc4)CC3)n2)c(C)c1	MTT	31 µM
O=c1[nH]c(SCc2cn(Cc3ccccc3)nn2)nc(Cc2c(Cl)cccc2Cl)c1I	MTT	104 µM
Cc1cc(C)c(Oc2ccc(N)c(NC3CCN(Cc4ccc(C(N)=O)cc4)CC3)n2)c(C)c1	MTT	26 µM
CCC(C)n1cc(C(=O)O)c(=O)c2cc(I)c(Oc3ccnc(Nc4ccc(C#N)cc4)n3)cc21	MTT	4.99 µM
COc1cc(C=Nc2nsc3ccccc23)ccc1O	MTT	6 µM
CC(=O)Oc1ccc(/C=C/C(=O)O[C@H](C(=O)O)[C@H](OC(=O)/C=C/c2ccc(OC(C)=O)c(OC(C)=O)c2)C(=O)O)cc1OC(C)=O		60 µM
Cc1ccnc2c1NC(=O)c1cccnc1N2C1CC1	MTT	73.87 µM
CC(C)c1nc(COC(N)=O)n(Cc2ccncc2)c1S(=O)c1cc(Cl)cc(Cl)c1		>0.5 µg/mL
C=C(C)[C@]12C[C@@H](COC(=O)c3ccccc3)[C@@]34OC5(O[C@@H]1[C@@H]3[C@@H]1O[C@]1(COC(=O)c1ccccc1)[C@@H](O)[C@@]1(O)[C@H]4[C@H]([C@H](C)[C@@H]1O)[C@@H](C)CCCCCC[C@H]5O)O2	luminescence	>0.03 µM
Clc1ccccc1/C=N/c1nc2ccccc2s1	MTT	>100 µM
Cn1ncc2c1S(=O)(=O)N(CCc1ccccc1)C(=O)N2CCc1cccc(C#N)c1	MTT	>307.1 µM
CCCn1cc(C(=O)O)c(=O)c2cc(I)c(Oc3ccnc(Nc4ccc(C#N)cc4)n3)cc21	MTT	7.37 µM
O=C(O)c1c[nH]c2ccc(Cc3ccccc3)cc2c1=O	MTT	19 µM
Cc1cc(C)c(CN2CCC(N=C3C=C(Cc4cccc5ccccc45)NS(=O)(=O)N3)CC2)c(C)c1	MTT	70.22 µM
Cn1cc(C(=O)O)c(=O)c2cc(Br)c(Oc3ccnc(Nc4ccc(C#N)cc4)n3)cc21	MTT	8.78 µM
CCCCCCCCCCCCCC(=O)OCc1ccccc1C(=O)Oc1c2n(cc(C(=O)NCc3ccc(F)cc3F)c1=O)[C@@H]1CN(C2=O)[C@@H](C)CC[C@]12CC(C)=NO2	luminescence	50 µM
Cc1cn([C@H]2C[C@H](N=[N+]=[N-])[C@@H](CO)O2)c(=O)[nH]c1=O		100 µM
Cc1cc(C)cc(S(=O)(=O)c2c(C(=O)NCCc3ccccc3)[nH]c3ccc(Cl)cc23)c1		>1 µM
N#Cc1ccc(Nc2nccc(Oc3cc4c(cc3Br)c(=O)c(C(=O)O)cn4C3CCCCC3)n2)cc1	MTT	3.59 µM
O=C([O-])c1cn(CCO)c2ccc(Cc3ccccc3)cc2c1=O.O=C([O-])c1cn(CCO)c2ccc(Cc3ccccc3)cc2c1=O.[Mg+2]	MTT	≥36 µM
NOCc1ccc(Cl)cc1Cl		48.1 µg/mL
Cc1cc(C)cc(S(=O)(=O)c2c(C(=O)NCc3ccccc3)[nH]c3ccc([N+](=O)[O-])cc23)c1		>1 µM
Cc1cc(C#N)cc(C)c1Oc1nc(Nc2ccc(C#N)cc2)nc(N)c1Br	MTT	>4.59 µM
NC(=O)c1ccc(Cn2cc(CSc3nc(Cc4cccc5ccccc45)c(I)c(=O)[nH]3)nn2)cc1	MTT	88.01 µM
Cc1cc(C#N)cc(C)c1Oc1ccc([N+](=O)[O-])c(NC2CCN(Cc3ccncc3)CC2)n1	MTT	25 µM
O=c1[nH]c(SCc2cn(Cc3ccc(F)cc3)nn2)nc(Cc2c(Cl)cccc2Cl)c1I	MTT	92.05 µM
CC1(C)[C@@H](O[C@H]2O[C@H](C(=O)O)[C@@H](O)[C@H](O)[C@H]2O[C@@H]2O[C@H](C(=O)O)[C@@H](O)[C@H](O)[C@H]2O)CC[C@]2(C)[C@H]3C(=O)C=C4[C@@H]5C[C@@](C)(C(=O)O)CC[C@]5(C)CC[C@@]4(C)[C@]3(C)CC[C@@H]12		756 µM
Cc1cc(C)c(Nc2ccc([N+](=O)[O-])c(NC3CCN(Cc4ccc(S(N)(=O)=O)cc4)CC3)n2)c(C)c1	MTT	14 µM

Repeating the final 4 entries:

compound | method | result
Cc1cc(C#N)cc(C)c1Oc1ccc([N+](=O)[O-])c(NC2CCN(Cc3ccncc3)CC2)n1 | MTT | 25 µM
O=c1[nH]c(SCc2cn(Cc3ccc(F)cc3)nn2)nc(Cc2c(Cl)cccc2Cl)c1I | MTT | 92.05 µM
CC1(C)[C@@H](O[C@H]2O[C@H](C(=O)O)[C@@H](O)[C@H](O)[C@H]2O[C@@H]2O[C@H](C(=O)O)[C@@H](O)[C@H](O)[C@H]2O)CC[C@]2(C)[C@H]3C(=O)C=C4[C@@H]5C[C@@](C)(C(=O)O)CC[C@]5(C)CC[C@@]4(C)[C@]3(C)CC[C@@H]12 |  | 756 µM
Cc1cc(C)c(Nc2ccc([N+](=O)[O-])c(NC3CCN(Cc4ccc(S(N)(=O)=O)cc4)CC3)n2)c(C)c1 | MTT | 14 µM

CCn: concentration that lowers growth or viability of the cells by n%. Neighbouring rows are from separate reports.